These results are taken from patent US20220089698A1, “ANTIBODIES THAT TARGET HIV GP120 AND METHODS OF USE” (published 2022).

What all share (experiment): cell-based or functional assay
Assay [1] has as its target HIV-1 envelope glycoprotein gp120 of virus BaL (HIV-1).
The target of assay [2] is HIV-1 envelope glycoprotein gp120 of virus 92US712 (HIV-1).
Assay [3] deals with HIV-1 envelope glycoprotein gp120 of virus 92US657 (HIV-1).
For assay [4], the target named is HIV-1 envelope glycoprotein gp120 of virus 92HT593 (HIV-1).
Assay [5] addresses HIV-1 envelope glycoprotein gp120 of virus 92US727 (HIV-1).
Assay [6] has as its target HIV-1 envelope glycoprotein gp120 of virus CHO77 (HIV-1 subtype B, virus CHO77).
Assay [7] concerns the target HIV-1 envelope glycoprotein gp120 of virus 8320 (HIV-1 subtype B, virus 8320).
For assay [8], the target named is HIV-1 envelope glycoprotein gp120 of virus 92US657 (HIV-1 subtype B, isolate 92US657).
For assay [9], the target named is HIV-1 envelope glycoprotein gp120 of virus BaL (HIV-1 BaL (lab adapted strain, subtype …)).

B1: Antibody 1.1.10-1 (antibody, human IgG1, kappa)
heavy: QVQLLQSGAAVTKPGASVRVSCEASGYNIRDYFIHWWRQAPGQGLQWVGWINPKTGQPNNPRQFQGRVSLTRHASWDFDTFSFYMDLKALRSDDTAVYFCARQRSDYWDFDVWGSGTQVTVSSASTKGPSVFPLAPSSKSTSGGTAALGCLVKDYFPEPVTVSWNSGALTSGVHTFPAVLQSSGLYSLSSVVTVPSSSLGTQTYICNVNHKPSNTKVDKKVEPKSCDKTHTCPPCPAPELLAGPDVFLFPPKPKDTLMISRTPEVTCVVVDVSHEDPEVKFNWYVDGVEVHNAKTKPREEQYNSTYRVVSVLTVLHQDWLNGKEYKCKVSNKALPLPEEKTISKAKGQPREPQVYTLPPSREEMTKNQVSLTCLVKGFYPSDIAVEWESNGQPENNYKTTPPVLDSDGSFFLYSKLTVDKSRWQQGNVFSCSVLHEALHSHYTQKSLSLSPGK
light: not shown
For B1, the “Virus Neutralization Potency” value was 0.021 µg/mL in assay [1]; 0.088 µg/mL in assay [2]; 1.83 µg/mL in assay [3]; 0.013 µg/mL in assay [4]; greater than 20 µg/mL in assay [5].

B2: Antibody 1.8.52-1 (antibody, human IgG1, kappa)
heavy: QVQLVQSGAEVTKPGASVRVSCEASGYNIRDYFIHWWRQAPGQGLQWVGWINPKTGQPNNPRQFQGRVSLTRHASWDFDTFSFYMDLKALRSDDTAVYFCARQRSDYWDFDVWGSGTQVTVSSASTKGPSVFPLAPSSKSTSGGTAALGCLVKDYFPEPVTVSWNSGALTSGVHTFPAVLQSSGLYSLSSVVTVPSSSLGTQTYICNVNHKPSNTKVDKKVEPKSCDKTHTCPPCPAPELLAGPDVFLFPPKPKDTLMISRTPEVTCVVVDVSHEDPEVKFNWYVDGVEVHNAKTKPREEQYNSTYRVVSVLTVLHQDWLNGKEYKCKVSNKALPLPEEKTISKAKGQPREPQVYTLPPSREEMTKNQVSLTCLVKGFYPSDIAVEWESNGQPENNYKTTPPVLDSDGSFFLYSKLTVDKSRWQQGNVFSCSVLHEALHSHYTQKSLSLSPGK
light: not shown
Turning to B2, the “Virus Neutralization Potency” value in [1] was 0.076 µg/mL; in assay [2], 0.141 µg/mL; in assay [3] it was 2.81 µg/mL; in assay [4] it was 0.015 µg/mL; in [5] it was greater than 20 µg/mL.

B3: Antibody 1.36.36-1 (antibody, human IgG1, kappa)
heavy: QVQLVQSGAEVKKPGASVRVSCKASGYNIRDYFMHWWRQAPGQGLQWVGWINPKTGQPNNPRQFQGRVTMTRHASWDFDTFSAYMDLSRLRSDDTATYFCARQRTDYWDFDVWGQGTMVTVSSASTKGPSVFPLAPSSKSTSGGTAALGCLVKDYFPEPVTVSWNSGALTSGVHTFPAVLQSSGLYSLSSVVTVPSSSLGTQTYICNVNHKPSNTKVDKKVEPKSCDKTHTCPPCPAPELLAGPDVFLFPPKPKDTLMISRTPEVTCVVVDVSHEDPEVKFNWYVDGVEVHNAKTKPREEQYNSTYRVVSVLTVLHQDWLNGKEYKCKVSNKALPLPEEKTISKAKGQPREPQVYTLPPSREEMTKNQVSLTCLVKGFYPSDIAVEWESNGQPENNYKTTPPVLDSDGSFFLYSKLTVDKSRWQQGNVFSCSVLHEALHSHYTQKSLSLSPGK
light: not shown
Consider B3, for which the “Virus Neutralization Potency (IC50)” value was 0.3 µg/mL in [6], 3.84 µg/mL in assay [7], 2.07 µg/mL in assay [8] and greater than 20 µg/mL in assay [9].

B4: Antibody 1.33.32-1 (antibody, human IgG1, kappa)
heavy: QVQLVQSGAEVKKPGASVRVSCKASGYNIRDYFIHWWRQAPGQGLQWVGWINPKTGQPNNPRQFQGRVTLTRHASWDFDTFSFYMDLKALRSDDTATYFCARQRSDYWDFDVWGSGTQVTVSSASTKGPSVFPLAPSSKSTSGGTAALGCLVKDYFPEPVTVSWNSGALTSGVHTFPAVLQSSGLYSLSSVVTVPSSSLGTQTYICNVNHKPSNTKVDKKVEPKSCDKTHTCPPCPAPELLAGPDVFLFPPKPKDTLMISRTPEVTCVVVDVSHEDPEVKFNWYVDGVEVHNAKTKPREEQYNSTYRVVSVLTVLHQDWLNGKEYKCKVSNKALPLPEEKTISKAKGQPREPQVYTLPPSREEMTKNQVSLTCLVKGFYPSDIAVEWESNGQPENNYKTTPPVLDSDGSFFLYSKLTVDKSRWQQGNVFSCSVLHEALHSHYTQKSLSLSPGK
light: not shown
Regarding B4, the “Virus Neutralization Potency” value in [1] is 0.063 µg/mL; in assay [2], 0.062 µg/mL; in assay [3], 1.39 µg/mL; in [4], 0.01 µg/mL; in assay [5], greater than 20 µg/mL.
